Measured values reported in paper PMC9477884 (Communications Biology, 2022).

Molecular target: the molecule itself

MKTAISLPDETFDRVSRRASELGMSRSEFFTKAAQRYLHELDAQLLTGQ (domain or fragment) [nMazE6, C-terminal deletion mutant of MazE6 (residue 1-49)]
stoichiometry N: 2
